# For at least one entry, the source does not settle the construct or the ends of the probe.
# Amino acid sequences for entries named in this document (tags omitted). Chains listed by the source or under a name are the forms on record and can include a tag or linker. Residues count along the entry.
# UniProt P04483, 2-207, tags left off: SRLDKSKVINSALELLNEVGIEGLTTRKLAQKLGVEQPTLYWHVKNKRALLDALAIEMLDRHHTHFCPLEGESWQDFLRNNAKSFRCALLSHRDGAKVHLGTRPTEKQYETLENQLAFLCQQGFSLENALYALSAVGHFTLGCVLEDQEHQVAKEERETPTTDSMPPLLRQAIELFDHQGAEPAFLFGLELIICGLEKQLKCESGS
# Molecular target: Wt TetR(B) in planta (Escherichia coli) (UniProt P04483)
# Test: activity in cells
# Conditions: N. benthamiana leaf, Renilla luciferase; fully induced at 2.0 ppm anhydrotetracycline; protein in cells
sequence,measurement,value
GAAAATCTTCGTCAACATGGTGGAGCACGACACGCTTGTCTACTCCAAAAATATCAAAGATACAGTCTCAGAAGACCAAAGGGCAATTGAGACTTTTCAACAAAGGGTAATATCCGGAAACCTCCTCGGATTCCATTGCCCAGCTATCTGTCACTTTATTGTGAAGATAGTGGAAAAGGAAGGTGGCTCCTACAAATGCCATCATTGCGATAAAGGAAAGGCCATCGTTGAAGATGCCTCTGCCGACAGTGGTCCCAAAGATGGACCCCCACCCACGAGGAGCATCGTGGAAAAAGAAGACGTTCCAACCACGTCTTCAAAGCAAGTGGATTGATGTGATATCTCCACTGACGTAAGGGATGACGCACAATCCCACTAGACTCTATCAGTGATAGAGTGTATATAAGACTCTATCAGTGATAGAGTGAACTCTATCAGTGATAGAGTTGTACTTATTTTTACAACAATTACCAACAACAACAAACAACAAACAACATTACAATTACTATTTACAATTACAGTCGACGGATCAAGTGCAAAGGTCCGCCTTGTTTCTCCTCTGTCTCTTGATCTGACTAATCTTGGTTTATGATTCGTTGAGTAATTTTGGGGAAAGCTTCGTCCACAGTTTTTTTTTCGATGAACAGTGCCGCAGTGGCGCTGATCTTGTATGCTATCCTGCAATCGTGGTGAACTTATTTCTTTTATATCCTTCACTCCCATGAAAAGGCTAGTAATCTTTCTCGATGTAACATCGTCCAGCACTGCTATTACCGTGTGGTCCATCCGACAGTCTGGCTGAACACATCATACGATATTGAGCAAAGATCGATCTATCTTCCCTGTTCTTTAATGAAAGACGTCATTTTCATCAGTATGATCTAAGAATGTTGCAACTTGCAAGGAGGCGTTTCTTTCTTTGAATTTAACTAACTCGTTGAGTGGCCCTGTTTCTCGGACGTAAGGCCTTTGCTGCTCCACACATGTCCATTCGAATTTTACCGTGTTTAGCAAGGGCGAAAAGTTTGCATCTTGATGATTTAGCTTGACTATGCGATTGCTTTCCTGGACCCGTGCAGCTGCGGACGGATCC (double strand) [35SCaMV::tetOp promoter (three tet operators)],activity on this sequence,90 % repression

# — patent US20110287936
